## Percent effect of library compounds

Source: ChEMBL document CHEMBL3988442, “University of Dundee, Small-Polar-MMV Screening Library” (2021).

Each number is a percent effect as filed. The controls that fix the scale are not given in the record; negative values are as filed. This is part of a subset picked to be rich in strong results. Two or more numbers in one place are separate tests of the same structure; such repeats can differ widely.

Mtb glucose medium: 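Phenotypic screen: M. tuberculosis growth, glucose 7H9 medium, 3 days; the read-out is not stated. Compounds at 50 µM. Higher reads as more growth inhibition (inferred: compounds with an IC50 in retests scored well above the rest). About 69,000 compounds were tested under these conditions; 1.1% (about 760) showed 50% or more at least once.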
Mtb cholesterol medium: 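Whole-cell growth test on Mycobacterium tuberculosis, read after 4 days in a medium based on cholesterol and the lipid DPPC; the read-out is not stated. Concentration: 50 µM. Direction is inferred from retests: higher values go with more growth inhibition. About 69,000 compounds were tested under these conditions; 0.54% (about 370) showed 50% or more at least once.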

{"compound": "O=C(O)C(F)(F)F.O=C(O)C(F)(F)F.[H][C@@]12COC[C@@H](C(=O)Nc3cccnc3)[C@]1([H])CN(C1CCCC1)C2", "Mtb cholesterol medium": -5.594}
{"compound": "CCOCC(=O)N1CCC(CSCc2ccco2)CC1", "Mtb glucose medium": 35.93}
{"compound": "Cc1nc(C2CCCN(C(=O)c3ccc(N4CCCC4)nn3)C2)no1", "stereo": "configuration not stated", "Mtb glucose medium": 58.34}
{"compound": "O=C(Nc1ccccn1)C1CCN(C(=O)COc2ccccc2F)C1", "stereo": "configuration not stated", "Mtb glucose medium": 15.35}
{"compound": "Cc1ccccc1OCC1CCCN(c2cc(N)nc(N)n2)C1", "stereo": "configuration not stated", "Mtb glucose medium": 72.18, "Mtb cholesterol medium": 72.99}
{"compound": "NCC1CCN(C2CCN(c3ccc(-c4ccco4)cc3)CC2)C1", "stereo": "configuration not stated", "Mtb glucose medium": "38.7 & 53.61"}
{"compound": "Cc1cc(F)ccc1CN1CCC(O)(CN2CCCCC2)C1", "stereo": "configuration not stated", "Mtb glucose medium": -16.83}
{"compound": "COCCN1CCC(CNCc2c[nH]nc2C(C)(C)C)CC1", "Mtb glucose medium": 65.19, "Mtb cholesterol medium": 46.05}
{"compound": "NCCC1CN(c2nc(-c3ccccc3)nc3c2CCNC3)CCO1", "stereo": "configuration not stated", "Mtb glucose medium": 29.38}
{"compound": "NC(=O)Cn1ccnc1C1CCCN(Cc2ccccc2OC(F)F)C1", "stereo": "configuration not stated", "Mtb glucose medium": "-4.745 & 2.372"}
{"compound": "COc1cccnc1-c1ccc(F)c2c1OC(CN)C2", "stereo": "configuration not stated", "Mtb cholesterol medium": -2.068}
{"compound": "CN(Cc1cccc(OC(F)(F)F)c1)C(=O)c1cnsn1", "Mtb glucose medium": 35.56, "Mtb cholesterol medium": 50.44}
{"compound": "Cc1cccc(CNC(=O)Nc2ccc3c(c2)CCCC(=O)N3)c1", "Mtb cholesterol medium": -5.785}
{"compound": "COCC(=O)N1CCCN(Cc2cc(C(C)C)no2)CC1", "Mtb glucose medium": "102.1 & -8.837"}
{"compound": "Cc1ccc(C)c(NC(=O)c2coc(C)n2)c1", "Mtb glucose medium": 20.1}
{"compound": "CC(C)OCc1cccc(CNc2cnn(C)c(=O)c2Cl)c1", "Mtb cholesterol medium": 53.92}
{"compound": "Cn1cnc2cc(C(=O)N3CCC(c4ccccc4C(=O)O)C3)cnc21", "stereo": "configuration not stated", "Mtb glucose medium": "-0.8449 & -9.269"}
{"compound": "Cc1noc(-c2c[nH]nc2C2CCCN2C(=O)c2ccccc2)c1C", "stereo": "configuration not stated", "Mtb cholesterol medium": 53.3}
{"compound": "CC(CNC(=O)c1c[nH]nn1)Oc1ccccc1Br", "stereo": "configuration not stated", "Mtb cholesterol medium": "9.18 & 7.025"}
{"compound": "CC(C)N1CCC2(CCCN(Cc3ccc(F)cc3)C2=O)C1", "stereo": "configuration not stated", "Mtb glucose medium": 23.3}
{"compound": "COc1cc(C)ccc1OCCC(=O)N1CCC(C(N)=O)C1", "stereo": "configuration not stated", "Mtb glucose medium": -0.5406}
{"compound": "Cc1nccn1CCCn1cncc1-c1ccc2c(c1)CC(C)N2C.Cl", "stereo": "configuration not stated", "Mtb glucose medium": 21.81, "Mtb cholesterol medium": "11.78 & 20.87"}
{"compound": "CCc1nc(CN(C)C2CCN(CCC(=O)N3CCCCC3)C2)no1", "stereo": "configuration not stated", "Mtb glucose medium": 95.22}
{"compound": "Cl.NC(CC1CCCCC1)c1ccccc1", "stereo": "configuration not stated", "Mtb glucose medium": -10.08, "Mtb cholesterol medium": -6.834}
{"compound": "COc1ccc(S(=O)(=O)NCCC(O)c2ccccc2)c(C)c1", "stereo": "configuration not stated", "Mtb glucose medium": "5.783 & 8.26"}

Some entries from above, unchanged:

* COCC(=O)N1CCCN(Cc2cc(C(C)C)no2)CC1 : Mtb glucose medium: 102.1% & -8.837%
* CN(Cc1cccc(OC(F)(F)F)c1)C(=O)c1cnsn1 : Mtb glucose medium: 35.56%; Mtb cholesterol medium: 50.44%